Reference: PubChem BioAssay AID1224833 (University of Georgia, 2016)
Purpose: 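Host factors restraining rotavirus as candidate antiviral genes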 (primary screen). Cells: monkey MA104 kidney cells. Knock-down reagent: siRNA pool against human genes, 50 nM. Time to read-out: 48 h knock-down before infection; read 24 h after infection. Treatment: infection with rotavirus strain RV3 two days after transfection; infectious dose for this stage not given. Detection: 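Rotavirus antigen per well by fluorescent immunoassay, normalised to non-targeting control wells on each plate and given as a standard z-score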. Reading the numbers: z-score vs non-targeting control: higher = more rotavirus replication than with non-targeting control. Hit rule: In these data the active calls have z-score vs non-targeting control at about -1 or lower, or at about 1 or higher. Meaning of the calls: active = z-score beyond 1 either way; inactive = z-score within 1 of zero.
Here is an unselected part of about 12,000 reagents. About 5,600 of them (46%) were called active. 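Active calls cover z-scores past 1 in both directions, so they include lowered as well as raised rotavirus replication.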 A number with no mark means an inactive call. No sequences are given here.

target gene | z-score vs non-targeting control
KHDC1L (GeneID 100129128) | -0.824
PDPR (GeneID 55066) | -0.81
NAT14 (GeneID 57106) | -0.229
CLTB (GeneID 1212) | 1 (active)
EBP (GeneID 10682) | -1.53 (active)
ERMAP (GeneID 114625) | -0.352
ZNF428 (GeneID 126299) | -1.06 (active)
RPIA (GeneID 22934) | -1.58 (active)
C7orf25 (GeneID 79020) | -2.32 (active)
WFDC6 (GeneID 140870) | -0.0845
IKZF5 (GeneID 64376) | -0.228
SYCE1 (GeneID 93426) | -1.12 (active)
KLHL36 (GeneID 79786) | 0.294
MXD4 (GeneID 10608) | -1 (active)
DKK4 (GeneID 27121) | 1.16 (active)
ZNF557 (GeneID 79230) | 0.635
MYOZ2 (GeneID 51778) | -0.528
OR51D1 (GeneID 390038) | -1.02 (active)
EEF1AKMT1 (GeneID 221143) | 1.23 (active)
USP51 (GeneID 158880) | 0.643

2 entries already listed, arranged by “z-score vs non-targeting control”, high to low:
target gene | z-score vs non-targeting control
ERMAP (GeneID 114625) | -0.352
EBP (GeneID 10682) | -1.53 (active)

Next reagents:
target gene | z-score vs non-targeting control
MRPL47 (GeneID 57129) | 0.225
REEP6 (GeneID 92840) | -1.79 (active)
ADGRL3 (GeneID 23284) | -0.98
OR10C1 (GeneID 442194) | 0.403
SLC25A1 (GeneID 6576) | -2.03 (active)
DHRS4L2 (GeneID 317749) | 0.215
PES1 (GeneID 23481) | 0.584
SCAMP2 (GeneID 10066) | 1.15 (active)
FAM89B (GeneID 23625) | 0.951
RAX (GeneID 30062) | -0.619
SH2B3 (GeneID 10019) | -0.748
ZNF430 (GeneID 80264) | 0.0774
FAM184A (GeneID 79632) | 0.465
KLF13 (GeneID 51621) | -1.25 (active)
SPAG8 (GeneID 26206) | -0.597
PYROXD2 (GeneID 84795) | 0.493
B4GALT4 (GeneID 8702) | -2.12 (active)
MLYCD (GeneID 23417) | 0.887
ESPL1 (GeneID 9700) | 2.04 (active)
NCS1 (GeneID 23413) | -2.09 (active)
LOXL4 (GeneID 84171) | -0.661
ZFP2 (GeneID 80108) | -1.37 (active)
ACAD8 (GeneID 27034) | -0.892
CNTNAP2 (GeneID 26047) | -2.13 (active)
SLC5A4 (GeneID 6527) | -0.608
